Data as given in ChEMBL document CHEMBL2401699, “4-Amino-7-chloroquinolines: probing ligand efficiency provides botulinum neurotoxin serotype A light chain inhibitors with significant antiprotozoal activity” (J Med Chem, 2013).

Legend:
[1] = Selectivity index, ratio of IC50 for human HepG2 cells to IC50 for Plasmodium falciparum W2; type: toxicity, cell-based
Plasmodium falciparum = test: Antimalarial activity against multidrug-resistant Plasmodium falciparum TM90C2A after 72 hrs by MSF assay; type: functional, organism-based
[2] = Selectivity index, ratio of IC50 for human HepG2 cells to IC50 for Plasmodium falciparum TM91C235; type: toxicity, cell-based
[3] = Selectivity index, ratio of IC50 for human HepG2 cells to IC50 for Plasmodium falciparum D2; type: toxicity, cell-based

| Compound | Ratio IC50 [1] | IC90 (Plasmodium falciparum) | Ratio IC50 [2] | Ratio IC50 [3] |
| --- | --- | --- | --- | --- |
| Clc1ccc2c(NCCCNCc3ccc(Br)cc3)ccnc2c1 | 834 | 0.0101 µM | 800 | 1250 |
| Clc1ccc2c(NCCNCc3ccccc3)ccnc2c1 | 1780 |  | 2630 | 3030 |
